We go through five molecules from US5753610A, “Perfume containing (6E) -2,3-dihydrofarnesol” (Takasago International Corporation, priority 1995, dated 1998).

A short description of this data set: Evaluation of fragrance qualities by seven skilled panelists.
Take `CC(C)=CCC/C(C)=C/CCC(C)CCO` (centres unmarked) [(a), (6E)-2,3-dihydrofarnesol]: the “perfume value / usability as cyclamen-like floral perfume” value (“perfume value / usability” for short) is reported as “highly useful as a cyclamen-like floral perfume”.

Regarding `CC(C)=CCC/C(C)=C/CCC(C)CCO` (centres unmarked) [(b), (6E)-2,3-dihydrofarnesol], the fragrance qualities entry is “somewhat inferior to the compound (a) in the floral feel, fragrance intensity and richness”; the “perfume value / usability” value is reported as “usable as a cyclamen-like floral perfume”.

Consider `CC(C)=CCC/C(C)=C/CCC(C)CCO` (centres unmarked) [(c), 2,3-dihydrofarnesol], for which the fragrance qualities entry is “metallic, woody and green fragrance with a poor floral feel”; the “perfume value / usability” value is “poor in the perfume value due to its metallic and woody fragrance”.

As for `CC(C)=CCC/C(C)=C/CC[C@H](C)CCO` [(d), (3S)-(6E)-2,3-dihydrofarnesol], the fragrance qualities entry was “somewhat stronger than that of the compound (a) and long-lasting, clean, graceful and floral similar to cyclamen”.

Turning to `CC(C)=CCC/C(C)=C/CC[C@@H](C)CCO` [(e), (3R)-(6E)-2,3-dihydrofarnesol], the fragrance qualities entry was “weak fragrance with a not floral but somewhat metallic and balsamic side note”; the “perfume value / usability” value is “poor in the perfume value”.
